Pooled drug test results. Numbers come from NIAID ChemDB, via PubChem.

Shared fields: growth or infection tests

Zone: diameter of growth inhibition. Neighbouring rows are from separate reports. An empty or dashed field is not shown. A number after MIC or MFC names an inhibition level or a share of isolates.

smiles	method	conditions	agent	dose	strain or isolate	measure	value
O=C(Nc1ccc(C(F)(F)F)cc1)c1cc(Cl)ccc1OP(=O)(c1ccccc1)c1ccccc1		14 d	Mycobacterium kansasii		My 235/80	MIC	4 µM
Cc1nn(-c2ccccc2)c2c1C(c1cn(-c3ccccc3)nc1-c1ccc(Cl)cc1)C1=C(NC(C)(c3cc(O)c(Cl)c(O)c3)NC1=O)O2	agar diffusion / agar		Mycobacterium smegmatis	0.1 mg/mL	NCIM 5138	zone	3.8 mm
Clc1ccc(Cn2cc(/C=N/Nc3nncs3)c3ccccc32)cc1	broth dilution	24 h	Mycobacterium bovis BCG		1173P2	MIC100	3.91 µg/mL
CC[C@@H](C(=O)[C@@H](C)[C@@H](O)[C@H](C)[C@@H]1O[C@@H]([C@@H](CC)C(=O)O)CC[C@@H]1C)[C@H]1O[C@@]2(C=C[C@@H](O)[C@@]3(CC[C@@](C)([C@H]4CC[C@](O)(CC)[C@H](C)O4)O3)O2)[C@H](C)C[C@@H]1C	resazurin		Mycobacterium marinum		ATCC BAA-535	MIC	10 µg/mL
CC[C@@H](CO)NCCN[C@@H](CC)CO			Mycobacterium avium complex		9141	MIC	3.8 µg/mL
O=C(Nc1ccc(Br)cc1)c1cc(Cl)ccc1OP(=O)(OCc1ccccc1)OCc1ccccc1		21 d	Mycobacterium kansasii		My 235/80	MIC	32 µM
CCOc1cc(Cc2cnc(N)nc2N)cc(OCC)c1-n1cccc1			Mycobacterium ulcerans		ATCC 19423	MBC	0.5 µg/mL
Cc1nn(-c2ccccc2)c2c1C(c1cn(-c3ccccc3)nc1-c1ccc(F)cc1)C1=C(NC(C)(c3cc(O)c(I)cc3Cl)NC1=O)O2	agar diffusion / agar		Mycobacterium phlei	1 mg/mL	NCIM 2240	zone	8.6 mm
COc1cc(Cc2cnc(N)nc2N)cc(OC)c1Br			Mycobacterium ulcerans		Isolate 8756	MBC	8 µg/mL
Cc1cccc(Cn2cc(/C=N/NC(=S)NN)c3ccccc32)c1	broth dilution	24 h	Mycobacterium bovis BCG		1173P2	MIC100	>500 µg/mL
Cc1nn(-c2ccccc2)c2c1C(c1cn(-c3ccccc3)nc1-c1ccc(Cl)cc1)C1=C(NC(C)(c3cc(O)cc(O)c3)NC1=O)O2	agar diffusion / agar		Mycobacterium phlei		NCIM 2240	MIC	70 µg/mL
CN(C)c1cc(NC(=O)CNC(C)(C)C)c(O)c2c1C[C@H]1C[C@H]3[C@H](N(C)C)C(=O)C(C(N)=O)=C(O)[C@@]3(O)C(=O)C1=C2O	broth dilution		Mycobacterium abscessus		X88	MIC	0.5 µg/mL
Cc1ccc(Cn2cc(/C=N/Nc3nncs3)c3ccccc32)cc1	broth dilution	48 h	Mycobacterium bovis BCG		1173P2	MIC100	125 µg/mL
O=C(Nc1ccc(Br)cc1)c1cc(Cl)ccc1OP(=O)(Oc1ccccc1)Oc1ccccc1		7 d	Mycobacterium kansasii		My 6509/96	MIC	8 µM
Cc1nn(-c2ccccc2)c2c1C(c1cn(-c3ccccc3)nc1-c1ccc(Cl)cc1)C1=C(NC(C)(c3cc(O)c(I)cc3Cl)NC1=O)O2	agar diffusion / agar		Mycobacterium phlei		NCIM 2240	MIC	50 µg/mL
O=C(Nc1ccc(C(F)(F)F)cc1)c1cc(Cl)ccc1OP(=O)(Oc1ccccc1)Oc1ccccc1		21 d	Mycobacterium kansasii		My 235/80	MIC	4 µM
NNC(=S)N/N=C/c1cn(S(=O)(=O)c2ccccc2)c2ccccc12	broth dilution	24 h	Mycobacterium bovis BCG		1173P2	MIC100	>500 µg/mL
CC[C@H]1OC(=O)[C@H](C)[C@@H](O[C@H]2C[C@@](C)(OC)[C@@H](O)[C@H](C)O2)[C@H](C)[C@@H](O[C@@H]2O[C@H](C)C[C@H](N(C)C)[C@H]2O)[C@](C)(OC)C[C@@H](C)C(=O)[C@H](C)[C@@H](O)[C@]1(C)O	broth dilution		Mycobacterium abscessus		X42	MIC	4 µg/mL
Cc1nn(-c2ccccc2)c2c1C(c1cn(-c3ccccc3)nc1-c1ccc(F)cc1)C1=C(NC(C)(c3cc(O)c(Cl)c(O)c3)NC1=O)O2	agar diffusion / agar		Mycobacterium phlei		NCIM 2240	MIC	50 µg/mL
O=C(Nc1ccc(Cl)c(Cl)c1)c1cc(Cl)ccc1OP(=O)(Oc1ccccc1)Oc1ccccc1		14 d	Mycobacterium kansasii		My 6509/96	MIC	4 µM
COc1nc2ccc(Br)cc2cc1[C@@H](c1ccccc1)[C@@](O)(CCN(C)C)c1cccc2ccccc12	resazurin		Mycobacterium aurum			MIC	0.01 µg/mL

The first 2 rows once more:

{"smiles": "O=C(Nc1ccc(C(F)(F)F)cc1)c1cc(Cl)ccc1OP(=O)(c1ccccc1)c1ccccc1", "conditions": "14 d", "agent": "Mycobacterium kansasii", "strain or isolate": "My 235/80", "measure": "MIC", "value": "4 µM"}
{"smiles": "Cc1nn(-c2ccccc2)c2c1C(c1cn(-c3ccccc3)nc1-c1ccc(Cl)cc1)C1=C(NC(C)(c3cc(O)c(Cl)c(O)c3)NC1=O)O2", "method": "agar diffusion / agar", "agent": "Mycobacterium smegmatis", "dose": "0.1 mg/mL", "strain or isolate": "NCIM 5138", "measure": "zone", "value": "3.8 mm"}